Test results reported in patent publication US10806164B2 (priority 2016, dated 2020).
Marks after values point to notes of the source that are not given here.

Conditions: rat, in vivo

Deoxynivalenol [DON]
Conversion food Means ± Standard error: 6.15 ± 0.287 ^b
Gain of weight Means ± Standard error: 83 ± 3.45 ^b
Weight Final Means ± Standard error: 169 ± 3.69 ^b g
